# Mutational interference map of HIV-1 RNA dimerization

Reference: Ye et al. 2022, doi:10.1038/s41594-022-00746-2.

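Randomly mutated transcripts starting with one, two or three G (1G, 2G, 3G), capped or uncapped, were folded for 30 min at 37 °C. Monomer and dimer bands were cut from native gels after folding in high salt (300 mM KCl, 5 mM MgCl2) or low salt (40 mM KCl, 0.1 mM MgCl2). Mutation frequencies in the two bands give Kdimer.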

RNA: 5' end of the HIV-1 NL4-3 genome, made in vitro. Positions 1-437 read:
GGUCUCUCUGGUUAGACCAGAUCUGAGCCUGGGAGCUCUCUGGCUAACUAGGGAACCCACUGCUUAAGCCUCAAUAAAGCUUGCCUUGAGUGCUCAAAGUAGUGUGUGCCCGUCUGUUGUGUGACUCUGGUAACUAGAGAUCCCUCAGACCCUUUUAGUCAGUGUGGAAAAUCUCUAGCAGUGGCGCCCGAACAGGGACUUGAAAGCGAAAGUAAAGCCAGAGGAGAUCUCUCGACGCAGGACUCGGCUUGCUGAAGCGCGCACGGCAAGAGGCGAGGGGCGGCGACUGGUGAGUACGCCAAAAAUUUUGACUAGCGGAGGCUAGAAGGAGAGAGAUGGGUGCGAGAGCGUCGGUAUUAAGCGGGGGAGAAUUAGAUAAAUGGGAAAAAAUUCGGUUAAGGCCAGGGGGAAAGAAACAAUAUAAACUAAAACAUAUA

Scale: median log2 Kdimer over the changes at a position; positive = changes inhibit dimerization, negative = changes enhance it. Sample: 1G uncapped low-salt. One numbering serves 1G, 2G and 3G. A position is written with its base where known. Bases beyond 437 are not listed in the source.

| # | position | domain | 1G uncapped low-salt |
|---|---|---|---|
| 1 | G247 | SL1 | -1.19 |
| 2 | A330 | none | 0.22 |
| 3 | G119 | none | -0.43 |
| 4 | U159 | PBS | -0.06 |
| 5 | A46 | TAR | -0.39 |
| 6 | G206 | PBS | -0.48 |
| 7 | G367 | none | 0.09 |
| 8 | C185 | PBS | -0.26 |
| 9 | A263 | SL1 | 1.12 |
| 10 | A76 | PolyA | -0.02 |
| 11 | G217 | antiPAS | -1.08 |
| 12 | U381 | none | -0.26 |
| 13 | C56 | TAR | -0.06 |
| 14 | U75 | PolyA | 0.05 |
| 15 | G353 | none | -0.08 |
| 16 | C245 | SL1 | 1.61 |
| 17 | 491 | none | -0.05 |
| 18 | G340 | AUG | 0.06 |
| 19 | A345 | none | 0.36 |
| 20 | A374 | none | 0.06 |
| 21 | A124 | none | 0.26 |
| 22 | G52 | TAR | 0.06 |
| 23 | A386 | none | -0.03 |
| 24 | C40 | TAR | -0.28 |
| 25 | G273 | SL1 | -0.58 |
| 26 | G196 | PBS | 0.53 |
| 27 | U145 | PBS | 0.07 |
| 28 | A356 | none | -0.06 |
| 29 | G409 | none | -0.17 |
| 30 | 481 | none | -0.03 |
| 31 | A74 | PolyA | 0.05 |
| 32 | U120 | none | 0.21 |
| 33 | A96 | PolyA | 0.01 |
| 34 | C393 | none | -0.13 |
| 35 | A180 | PBS | -0.11 |
| 36 | C63 | PolyA | 0.00 |
| 37 | A302 | none | -0.21 |
| 38 | C146 | PBS | -0.05 |
| 39 | C142 | PBS | 0.03 |
| 40 | U396 | none | -0.02 |
| 41 | 474 | none | -0.03 |
| 42 | 456 | none | 0.12 |
| 43 | A428 | none | 0.12 |
| 44 | A171 | PBS | 0.13 |
| 45 | C57 | TAR | -0.09 |
| 46 | U122 | none | 0.50 |
| 47 | U427 | none | -0.03 |
| 48 | U81 | PolyA | 0.19 |
| 49 | G317 | SL3 | 0.12 |
| 50 | G139 | PBS | 0.53 |
| 51 | C199 | PBS | 0.02 |
| 52 | G53 | TAR | 0.00 |
| 53 | U141 | PBS | 0.20 |
| 54 | G68 | PolyA | 0.18 |
| 55 | C85 | PolyA | -0.18 |
| 56 | A191 | PBS | -0.05 |
| 57 | U358 | none | -0.07 |
| 58 | A429 | none | 0.00 |
| 59 | 514 | none | 0.04 |
| 60 | C44 | TAR | -0.09 |
| 61 | 469 | none | 0.00 |
| 62 | 485 | none | -0.05 |
| 63 | 468 | none | 0.03 |
| 64 | 446 | none | 0.12 |
| 65 | 460 | none | 0.04 |
| 66 | U377 | none | -0.10 |
| 67 | 459 | none | 0.11 |
| 68 | U105 | U5 | 0.12 |
| 69 | G212 | PBS | -0.61 |
| 70 | G325 | SL3 | 0.50 |
| 71 | A419 | none | 0.03 |
| 72 | A161 | PBS | -0.04 |

A selection of 10 entries from above:

{"position": "U105", "domain": "U5", "1G uncapped low-salt": 0.12}
{"position": "C40", "domain": "TAR", "1G uncapped low-salt": -0.28}
{"position": "514", "domain": "none", "1G uncapped low-salt": 0.04}
{"position": "G340", "domain": "AUG", "1G uncapped low-salt": 0.06}
{"position": "A428", "domain": "none", "1G uncapped low-salt": 0.12}
{"position": "U120", "domain": "none", "1G uncapped low-salt": 0.21}
{"position": "G367", "domain": "none", "1G uncapped low-salt": 0.09}
{"position": "G325", "domain": "SL3", "1G uncapped low-salt": 0.50}
{"position": "485", "domain": "none", "1G uncapped low-salt": -0.05}
{"position": "C56", "domain": "TAR", "1G uncapped low-salt": -0.06}